The target of the experiment is purified recombinant HCMV polymerase from strain AD169 (UL54) (Human cytomegalovirus, UniProt P08546). The experiment is described as follows: HCMV Polymerase LANCE TR-FRET Assay. Format: biochemical. As to conditions: read-out: IC50 (nM) Example B; 2 nM GST-UL54, 37° C. for 30 min.

Chains of the proteins cited; added tags and fusions are not shown.
UniProt P08546, whole entry: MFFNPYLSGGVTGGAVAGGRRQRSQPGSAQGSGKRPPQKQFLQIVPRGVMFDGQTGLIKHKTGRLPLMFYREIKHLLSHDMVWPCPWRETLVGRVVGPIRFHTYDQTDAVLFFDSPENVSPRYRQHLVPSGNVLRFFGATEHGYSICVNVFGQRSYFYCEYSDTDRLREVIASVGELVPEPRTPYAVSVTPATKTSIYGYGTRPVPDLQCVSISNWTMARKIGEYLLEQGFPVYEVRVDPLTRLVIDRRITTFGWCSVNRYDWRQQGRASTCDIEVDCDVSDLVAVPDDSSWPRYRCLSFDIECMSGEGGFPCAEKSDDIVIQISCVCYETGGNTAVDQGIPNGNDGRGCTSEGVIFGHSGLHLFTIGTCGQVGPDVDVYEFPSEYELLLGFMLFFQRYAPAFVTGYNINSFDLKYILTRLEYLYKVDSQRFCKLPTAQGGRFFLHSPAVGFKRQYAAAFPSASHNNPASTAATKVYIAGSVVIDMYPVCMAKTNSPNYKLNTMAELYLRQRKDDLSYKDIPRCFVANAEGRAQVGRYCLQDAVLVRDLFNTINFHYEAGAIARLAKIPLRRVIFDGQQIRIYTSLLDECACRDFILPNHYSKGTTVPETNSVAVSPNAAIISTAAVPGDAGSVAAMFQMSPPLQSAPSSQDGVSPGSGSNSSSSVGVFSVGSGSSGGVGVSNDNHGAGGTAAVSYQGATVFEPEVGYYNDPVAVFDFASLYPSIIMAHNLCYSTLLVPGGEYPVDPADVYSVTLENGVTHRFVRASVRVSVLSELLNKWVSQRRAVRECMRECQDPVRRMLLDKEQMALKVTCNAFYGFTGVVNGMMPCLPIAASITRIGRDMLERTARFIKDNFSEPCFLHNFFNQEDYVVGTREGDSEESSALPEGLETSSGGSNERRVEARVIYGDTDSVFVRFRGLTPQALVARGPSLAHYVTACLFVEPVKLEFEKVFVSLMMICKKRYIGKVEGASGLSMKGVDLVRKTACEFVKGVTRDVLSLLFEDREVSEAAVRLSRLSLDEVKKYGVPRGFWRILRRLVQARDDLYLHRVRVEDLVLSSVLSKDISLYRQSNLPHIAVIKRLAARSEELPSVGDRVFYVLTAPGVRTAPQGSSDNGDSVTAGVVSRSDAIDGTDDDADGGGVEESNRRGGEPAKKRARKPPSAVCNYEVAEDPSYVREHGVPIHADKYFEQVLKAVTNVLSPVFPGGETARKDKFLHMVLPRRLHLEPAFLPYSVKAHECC

By IC50 is commonly meant the concentration that gives 50% inhibition.

Take `Cn1cnc(CCc2cc3c(cc2Cl)N(C(=O)[C@H]2CC(=O)N(c4cccc(C#N)c4)C2)CC3(C)C)c1`: the IC50 turned out to be 350 nM.

The values are drawn from US9505775B2, “Inhibitors of cytomegalovirus” (Boehringer Ingelheim International GmbH, priority 2012, dated 2016).
